One substance from US8753605B2, “Imaging probes, methods of making imaging probes, and methods of imaging” (The Board of Trustees of the Leland Stanford Junior …, priority 2010, dated 2014) can be followed below.

Common to all, as to type: in vivo
The test system of assay [1] is EGFR overexpression A431 tumor xenograft. As to the kind of experiment: microPET imaging of mice bearing A431 tumor.
A further assay has as its system SUM159 TNBC tumors. Kind of assay: microPET imaging of nude mice bearing SUM159 TNBC tumors. Particulars: nu/nu mouse bearing SUM159. How it is done: Ac-Cys-ZEGFR:1907 was chemically synthesized using a solid phase peptide synthesizer and then site-specifically conjugated with 1,4,7,10-tetraazacyclododecane-1,4,7,10-tetraacetic acid (DOTA) for radiolabeling or N-2-(4-^18F-fluorobenzamido)-ethyl]-maleimide (^18F-FBEM)^3. The in vitro cell uptake study was performed using SUM159 cells. MicroPET imaging using ^64Cu-DOTA-ZEGFR:1907 or ^18F-FBEM-ZEGFR:1907 were evaluated in nude mice bearing subcutaneous MDA-MB-231 and SUM159 TNBC tumors. Biodistribution studies were performed to understand the in vivo pharmacokinetics of ZEGFR:1907. Immunohistochemistry studies were performed to confirm imaging findings ex vivo (data not shown).

The subject of a further assay is head and neck tumor. As to the kind of experiment: microPET imaging of mice bearing head and neck cancer tumor. Particulars: 50-70 μCi spiked with 45 μg cold Ac-Cys-ZEGFR:1907, tail vein. How it is done:
PET imaging of tumor-bearing mice was performed on a microPET R4 rodent model scanner (Siemens Medical Solutions USA, Inc.). The mice bearing head and neck cancer were injected with ^18F-FBEM-CYS-ZEGFR:1907 (1.85-2.59 MBq, 50-70 μCi, 2-3 μg) spiked with cold Ac-Cys-ZEGFR:1907 (45 μg) via the tail vein. For the treated group, mice were scanned three weeks after anti-cancer drug treatment. At different times after the injection, the mice were anesthetized with 2% isoflurane and placed in the prone position and near the center of the field of view of a microPET. The 3-min static scans were obtained, and the images were reconstructed by a two-dimensional ordered subsets expectation maximum (OSEM) algorithm.

As to “^18F-FBEM-CYS-ZEGFR:1907: N-2-(4-18F-fluorobenzamido)ethyl-maleimide attached to the Cys residue of Ac-Cys-ZEGFR:1907, an EGFR Affibody peptide (SEQ ID NO: 1)”, the “time of best imaging contrast” value in assay [1] (microPET) is 3 h post-injection. The “tumor uptake (microPET)” value was “high uptake in tumor at all time-point” in assay [1] (probe 50-70 μCi coinjected with 45 μg cold Ac-Cys-ZEGFR:1907, or 18F-FDG 90 μCi, tail vein); “high uptake” with head and neck tumor. The “imaging contrast at tumor” value in the assay with SUM159 TNBC tumors (as early as 1.5 h p.i.) is given as “high contrast imaging”. Further, the “accumulation in tumor (speed)” value in the assay on SUM159 TNBC tumors (tail vein injection) is given as “fast accumulation”.
